Pooled drug test results. Numbers come from NIAID ChemDB, via PubChem.

Shared fields: cytotoxicity tests; cells: HepG2.117; read by: luminescence; measure: CC50

Conditions beyond the fields shown may differ between rows. CCn is the concentration with n% toxicity to the cells.

smiles,value
C=C[C@H](C)Nc1nc2c(c(=O)n1-c1ccc(C(=O)N(C)C(=O)OCOC(=O)C[C@H](O)C(=O)O)cc1)C[C@@H](C)N(C(=O)c1ccc(Br)c(C(F)(F)F)c1)C2,>50 µM
C[C@@H]1Cc2nn3c(c2CN1C(=O)c1ccc(Cl)c(C#N)c1)C(=O)N([C@@H](C)c1ccc(S(F)(F)(F)(F)F)cc1)CC3,40.3 µM
C=C[C@H](C)Nc1nc2c(c(=O)n1-c1ccc(C(=O)N(C)C(=O)OCOC(=O)[C@@H](N)C(C)C)cc1)C[C@@H](C)N(C(=O)c1ccc(Br)c(C(F)(F)F)c1)C2,>50 µM
O=C(c1ccc(Cl)c(Cl)c1)N1CCc2nn3c(c2C1)-c1noc(-c2ccccc2)c1CCC3,>50 µM
CC(=O)Nc1ccc([C@@H](C)N2CCn3nc4c(c3C2=O)CN(C(=O)c2ccc(Cl)c(C(F)(F)F)c2)[C@H](C)C4)cc1,19.7 µM
Cc1cc(C)n(-c2nc3c(c(=O)n2-c2ccc(NC[C@@H](C)O)nc2)C[C@@H](C)N(C(=O)c2ccc(Br)c(C(F)(F)F)c2)C3)n1,>0.5 µM
C[C@@H]1Cc2nn3c(c2CN1C(=O)c1ccc(Cl)c(C#N)c1)C(=O)N(Cc1ccc(S(F)(F)(F)(F)F)cc1)CC3,14.2 µM
Cc1cc(C)n(-c2nc3c(c(=O)n2-c2ccc(N4CC(O)C4)nc2)C[C@@H](C)N(C(=O)c2ccc(Br)c(C(F)(F)F)c2)C3)n1,>0.5 µM
C[C@@H]1Cc2nn3c(c2CN1C(=O)c1ccc(Cl)c(C#N)c1)C(=O)N([C@H](C)c1cccc(NS(C)(=O)=O)c1)CC3,>50 µM
Cc1cc(C)n(-c2nc3c(c(=O)n2-c2ccc(NC4CC(O)C4)nc2)C[C@@H](C)N(C(=O)c2ccc(Br)c(C(F)(F)F)c2)C3)n1,>0.5 µM
CNC(=O)c1ccc(N2C(=NCc3ccccc3-c3ccccn3)NC3=C(C[C@@H](C)N(C(=O)c4ccc(Br)c(C(F)(F)F)c4)C3)C2O)c(Cl)c1,>50 µM
CC(=O)Nc1ccc([C@H](C)N2CCn3nc4c(c3C2=O)CN(C(=O)c2ccc(Cl)c(Cl)c2)[C@H](C)C4)cc1,0.3 µM
Cc1cc(C)n(-c2nc3c(c(=O)n2-c2cc(C)c4c(c2)ncn4C)C[C@@H](C)N(C(=O)c2ccc(Br)c(C(F)(F)F)c2)C3)n1,>0.5 µM
C[C@@H]1Cc2nn3c(c2CN1C(=O)c1ccc(Cl)c(C#N)c1)C(=O)N([C@@H](C)c1ccc(C(F)(F)F)cc1)CC3,>50 µM
COc1ccc(-n2c(-c3ccccc3)nc3c(c2=O)C[C@@H](C)N(C(=O)c2ccc(Br)c(C(F)(F)F)c2)C3)cc1,>0.5 µM
C[C@@H]1Cc2nn3c(c2CN1C(=O)c1ccc(Cl)c(C#N)c1Cl)C(=O)N([C@@H](C)c1ccc(OC(F)F)cc1)CC3,>50 µM
CNC(=O)c1ccc(-n2c(-n3nc(C)cc3C)nc3c(c2=O)C[C@@H](C)N(C(=O)c2ccc(Br)c(C(F)(F)F)c2)C3)cc1Cl,>0.5 µM
C[C@@H]1Cc2nn3c(c2CN1C(=O)c1ccc(Cl)c(C#N)c1)C(=O)N(Cc1ccc2nccn2c1)CC3,>50 µM
CC(=O)Nc1cccc([C@@H](C)N2CCn3cc4c(c3C2=O)CN(C(=O)c2ccc(Cl)c(C#N)c2)[C@H](C)C4)c1,>50 µM
C[C@@H]1Cc2nn3c(c2CN1C(=O)c1ccc(Cl)c(C#N)c1)C(=O)N([C@H](C)c1ccc(C(F)(F)F)cc1)CC3,11.1 µM
C[C@@H]1Cc2nn3c(c2CN1C(=O)c1ccc(Cl)c(Cl)c1)C(=O)N([C@@H](C)c1ccc(NS(C)(=O)=O)cc1)CC3,>50 µM
C[C@@H]1Cc2nn3c(c2CN1C(=O)c1ccc(Cl)c(C#N)c1Cl)C(=O)N([C@H](C)c1ccc(OC(F)F)cc1)CC3,>50 µM
CNC(=O)c1ccc(-n2c(-n3nc(C)cc3C)nc3c(c2=O)C[C@@H](C)N(C(=O)c2ccc(Br)c(C(F)(F)F)c2)C3)cn1,>0.5 µM
C[C@@H]1Cc2nn3c(c2CN1C(=O)c1ccc(Cl)c(C#N)c1)C(=O)N([C@@H](C)c1cccc(C(F)(F)F)c1)CC3,>50 µM
C=C[C@H](C)Nc1nc2c(c(=O)n1-c1ccc(C(=O)N(C)CO)cc1)C[C@@H](C)N(C(=O)c1ccc(Br)c(C(F)(F)F)c1)C2,>50 µM
Cc1cc(C)n(-c2nc3c(c(=O)n2-c2ccc(N4CC[C@@H](O)C4)nc2)C[C@@H](C)N(C(=O)c2ccc(Br)c(C(F)(F)F)c2)C3)n1,>0.5 µM
C[C@@H]1Cc2nn3c(c2CN1C(=O)c1ccc(Cl)c(C#N)c1)C(=O)N([C@@H](C)c1ccc(OC(F)(F)F)cc1)CC3,25 µM
CNc1cnc(-n2c(-n3nc(C)cc3C)nc3c(c2=O)C[C@@H](C)N(C(=O)c2ccc(Br)c(C(F)(F)F)c2)C3)nc1,>0.5 µM
CC(=O)Nc1ccc([C@H](C)N2CCn3nc4c(c3C2=O)CN(C(=O)c2ccc(Cl)c(C(F)(F)F)c2)[C@H](C)C4)cc1,19.3 µM
C=C[C@H](C)Nc1nc2c(c(=O)n1-c1ccc(C(=O)N(C)C(=O)O[C@@H](OC(=O)[C@@H](N)C(C)C)C(C)C)cc1)C[C@@H](C)N(C(=O)c1ccc(Br)c(C(F)(F)F)c1)C2,>50 µM

The last 3 rows once more:

smiles	value
CNc1cnc(-n2c(-n3nc(C)cc3C)nc3c(c2=O)C[C@@H](C)N(C(=O)c2ccc(Br)c(C(F)(F)F)c2)C3)nc1	>0.5 µM
CC(=O)Nc1ccc([C@H](C)N2CCn3nc4c(c3C2=O)CN(C(=O)c2ccc(Cl)c(C(F)(F)F)c2)[C@H](C)C4)cc1	19.3 µM
C=C[C@H](C)Nc1nc2c(c(=O)n1-c1ccc(C(=O)N(C)C(=O)O[C@@H](OC(=O)[C@@H](N)C(C)C)C(C)C)cc1)C[C@@H](C)N(C(=O)c1ccc(Br)c(C(F)(F)F)c1)C2	>50 µM